Measured values from several laboratories, pooled; numbers as filed in NIAID ChemDB.

Common to all: tests in culture; organism: Mycobacterium bovis BCG; endpoint: MIC

Blank or dashed fields: not listed here.

compound,strain or isolate,changes,result
Cc1c(CN2CCN(C)CC2)cc(-c2ccc(Cl)cc2)n1-c1ccc(Cl)cc1,M8,L320P S258G,15 µM
CCCCCCSCCCCCCCCCCCCC#CC(=O)O,Pasteur,-,4.4 µM
NC(=S)N/N=C/c1cccnc1,NCTC 5692 ethR::hyg,-,5 µg/mL
CC1=C[C@H](OC(=O)c2ccccc2)C2[C@](C)(CC[C@@]2(O)C(C)C)C/C1=C/CO,Pasteur,-,50 µg/mL
CCCCCCSCCCCCCCCCCC#CC(=O)O,Pasteur,-,9.6 µM
CC(=O)Nc1ccc(/C=N/NC(N)=S)cc1,NCTC 5692 ethR::hyg,-,0.25 µg/mL
CC(C)[C@]1(C)CC[C@]2(C)C=CC(C)(C)C[C@H](OC(=O)c3ccccc3)C12,Pasteur,-,50 µg/mL
CCc1ccc(-c2cc(CN3CCOCC3)c(C)n2-c2ccc(F)cc2)cc1,WILD TYPE,-,0.04 µM
CC1=CCC2(C)CCC(O)(C(C)C)C2C(OC(=O)c2ccccc2)C1,Pasteur,-,3.125 µg/mL
CCCCCCCCCCCCCCCC#CC(=O)OCCO,Pasteur,-,1.9 µM
CC1=C[C@H](OC(=O)c2ccc(O)cc2)C2[C@](C)(CC[C@@]2(O)C(C)C)C/C1=C/CO,Pasteur,-,>50 µg/mL
CCCCCCCCCCCCCCSCC#CC(=O)O,Pasteur,-,0.5 µM
C/C=C(\C)C(=O)O[C@@H]1C=C(C)CC[C@]2(O)[C@@H](C(C)C)CC(=O)[C@]12C,Pasteur,-,50 µg/mL
COc1ccc(/C(C)=N/NC(N)=S)cc1,Carrying pMV261-ethA,-,0.25 µg/mL
CCCCCCCCCCCCCCCCC#CC(=O)O,Pasteur,-,10.6 µM

2 of the rows above, restated:

{"compound": "CC1=C[C@H](OC(=O)c2ccccc2)C2[C@](C)(CC[C@@]2(O)C(C)C)C/C1=C/CO", "strain or isolate": "Pasteur", "result": "50 µg/mL"}
{"compound": "CC(=O)Nc1ccc(/C=N/NC(N)=S)cc1", "strain or isolate": "NCTC 5692 ethR::hyg", "result": "0.25 µg/mL"}

Rows are shuffled and stem from different studies.